Data reported in PubChem BioAssay AID1621 (Southern Research Specialized Biocontainment Screening …, 2009).
Some of the results follow. Entries with a potency or affinity are not part of this list. Activity calls are given as the source filed them. How the calls were made is not given here.

Assay: inhibition of WNV-induced cytopathic effect – cell-based, CPE readout (AID 1621)
Details: West Nile virus-infected cells, at 10 µM, active compounds read high

Row | SMILES | CPE inhibition
1 | CN1CCC(Nc2cccc(F)c2)CC1 | inactive: -0.09%
2 | CCCOc1ccc(C(=O)NCC2(N(C)C)CCCCC2)cc1OC | inactive: 0%
3 | CN(C)c1cccc(C(=O)NCC2(N3CCCCC3)CCCCC2)c1 | inactive: -0.29%
4 | COc1ccc(CN(CCCl)CCCl)cc1Cl | inactive: -0.12%
5 | CC(C)c1ccc(NC2CCN(C(=O)OC(C)(C)C)CC2)cc1 | inactive: -0.48%
6 | COc1cc(OC)c(C(=O)NCC2(N(C)C)CCCCC2)cc1OC | inactive: 0.14%
7 | O=C(NCC1(N2CCCCC2)CCCCC1)c1cccc(C(F)(F)F)c1 | inactive: -0.35%
8 | COc1ccc(NC2CCN(C(=O)OC(C)(C)C)CC2)cc1 | inactive: -0.25%
9 | CN1CCN(CCOC(=O)C(O)(c2ccccc2)c2ccccc2)CC1 | inactive: -0.17%
10 | O=C(NCC1(N2CCOCC2)CCCCC1)c1cc(=O)[nH]c2ccccc12 | inactive: 0.27%
11 | COc1cc(C(=O)NCC2(N3CCCCC3)CCCCC2)ccc1OC(F)F | inactive: -0.79%
12 | O=C(NCC1(N2CCCCC2)CCCCC1)c1ccc(OC(F)F)cc1 | inactive: -0.35%
13 | O=C(NCC1(N2CCCCC2)CCCCC1)c1cccc([N+](=O)[O-])c1 | inactive: -0.78%
14 | N#CC1(Nc2ccccc2)CCN(CCc2ccccc2)CC1 | inactive: 0.15%
15 | CCN1CCC(Nc2ccc(Cl)cc2)CC1 | inactive: -0.22%
16 | Cc1ccc(OCC(C)C)c(CN(CCCl)CCCl)c1 | inactive: 0.07%
17 | COc1cc(C(=O)NCC2(N(C)C)CCCCC2)ccc1OC(F)F | inactive: 0.66%
18 | CCOC(=O)N1CCC(Nc2cccc(C)c2)CC1 | inactive: 0.65%
19 | CCOc1ccc(C)cc1CN(CCCl)CCCl | inactive: 0.13%
20 | CCOC(=O)N1CCC(Nc2ccc(F)cc2)CC1 | inactive: 0.91%
21 | COc1ccc(NC2CCN(CCc3ccccc3)CC2)c(OC)c1 | inactive: -0.54%
22 | O=C(NCC1(N2CCCCC2)CCCCC1)c1ccc(F)cc1 | inactive: -0.88%
23 | O=C(NCC1(N2CCOCC2)CCCCC1)c1cc2ccccc2o1 | inactive: -0.25%
24 | Cc1cc(C)cc(N(C(=O)c2ccccc2)C2CCN(C(=O)OC(C)(C)C)CC2)c1 | inactive: -1.73%
25 | CCOC(=O)N1CCC(Nc2ccc(OC)cc2)CC1 | inactive: -0.19%
26 | O=C(OC1CN2CCC1CC2)C1c2ccccc2Oc2ccccc21 (centres undefined) | inactive: -0.39%
27 | N#CC1(Nc2ccccc2)CCN(Cc2ccccc2)CC1 | inactive: 1.33%

Row | SMILES | CPE inhibition
28 | O=C(NCC1(N2CCCCC2)CCCCC1)c1ccc(=O)[nH]c1 | inactive: -0.21%
29 | CC(C)(C)OC(=O)N1CCC(N(C(=O)c2ccccc2)c2ccc(F)cc2)CC1 | inactive: -1.34%
30 | COc1ccc(C(=O)NCC2(N3CCCCC3)CCCCC2)c(OC)c1OC | inactive: -0.45%
31 | COc1ccc(C(=O)NCC2(N3CCCCC3)CCCCC2)cc1 | inactive: -0.32%
32 | CSc1ccccc1C(=O)NCC1(N2CCCCC2)CCCCC1 | inactive: -0.33%
33 | CCC(CO)(C(=O)OC1CN2CCC1CC2)c1ccccc1 (centres undefined) | inactive: 0.28%
34 | COc1cccc(C(=O)N(c2cc(C)cc(C)c2)C2CCN(C(=O)OC(C)(C)C)CC2)c1 | inactive: 0.24%
35 | COc1cc(OC)cc(C(=O)NCC2(N3CCOCC3)CCCCC2)c1 | inactive: -1.03%
36 | CCCOc1ccc(C)cc1CN(CCCl)CCCl | inactive: 0.13%
37 | CN1CCC(Nc2ccc(Cl)cc2)CC1 | inactive: 0.58%
38 | CN1CCC(Nc2ccc(F)c(Cl)c2)CC1 | inactive: -0.15%
39 | CCOc1ncccc1C(=O)NCC1(N2CCOCC2)CCCCC1 | inactive: 0.24%
40 | CCCOc1ccc(C(=O)NCC2(N(C)C)CCCCC2)cc1 | inactive: -0.34%
41 | O=C(O)C1(Nc2ccccc2)CCN(Cc2ccccc2)CC1 | inactive: 0.14%
42 | CC(C)(C)OC(=O)N1CCC(Nc2ccccc2)CC1 | inactive: 0.35%
43 | CCN1CCC(Nc2cccc(F)c2)CC1 | inactive: 0.37%
44 | CN(C)c1ccc(C(=O)NCC2(N3CCCCC3)CCCCC2)cc1 | inactive: -0.59%
45 | COc1cc(OC)cc(C(=O)NCC2(N3CCCCC3)CCCCC2)c1 | inactive: 0.04%
46 | Fc1ccccc1NC1CCN(Cc2ccccc2)CC1 | inactive: 0.2%
47 | CCCN1CCC(Nc2cc(OC)cc(OC)c2)CC1 | inactive: 0.36%
48 | c1ccc(CN2CCC(Nc3ccccc3)CC2)cc1 | inactive: 0.43%
49 | CN(C)C1(CNC(=O)c2cccc(C#N)c2)CCCCC1 | inactive: 0.07%
50 | CC(C)(C)OC(=O)N1CCC(N(C(=O)c2ccccc2)c2ccc(Cl)cc2)CC1 | inactive: -1.65%
51 | N#Cc1ccc(C(=O)NCC2(N3CCCCC3)CCCCC2)cc1 | inactive: 1.09%
52 | CCOC(=O)N1CCC(Nc2ccc(C)cc2)CC1 | inactive: -0.07%
53 | O=C(OC1CN2CCC1CC2)C1c2ccccc2C=Cc2ccccc21 (centres undefined) | inactive: 1.74%
54 | COc1ccc(C(=O)NCC2(N3CCOCC3)CCCCC2)cc1OC | inactive: 1%
